A mixed list of measured activities; the numbers were collected in NIAID ChemDB.

Common to all: whole-cell or culture tests; species: Mycobacterium avium complex; read-out: MIC

Conditions beyond the fields shown may differ between rows.

smiles | strain or isolate | result
CN[C@@H]1[C@@H](O)[C@@H](O[C@@H]2[C@@H](O)[C@H](O[C@H]3O[C@H](CN)CC[C@H]3N)[C@@H](N)C[C@H]2N)OC[C@]1(C)O | 31 strains | 8 µg/mL
O=C(O)c1cn(C2CC2)c2c(F)c(N3CC4C(CO)C4C3)c(F)cc2c1=O | 1760694 | 32 µg/mL
CN1CCN(c2cc3c(cc2F)c(=O)c(C(=O)O)cn3-c2ccc(F)cc2)CC1 | 3217 | 16 µg/mL
CO/N=C(\C(=O)N[C@@H]1C(=O)N2C(C(=O)O)=CCS[C@H]12)c1csc(N)n1 | 31 strains | 128 µg/mL
CO[C@H]1/C=C/O[C@@]2(C)Oc3c(C)c(O)c4c(O)c(c(/C=N/N5CCN(C)CC5)c(O)c4c3C2=O)NC(=O)/C(C)=C\C=C\[C@H](C)[C@H](O)[C@@H](C)[C@@H](O)[C@@H](C)[C@H](OC(C)=O)[C@@H]1C | LPR | 16 µg/mL
O=C(O)c1cn(C2CC2)c2c(F)c(N3CCSCC3)c(F)cc2c1=O | PI12/39 | 4 µg/mL
COc1c(N2CCNC(C)C2)c(F)cc2c(=O)c(C(=O)O)cn(C3CC3)c12 | N-966 | 8 µg/mL
NC[C@H]1O[C@H](O[C@H]2[C@H](O)[C@@H](O[C@H]3O[C@H](CO)[C@@H](O)[C@H](N)[C@H]3O)[C@H](N)C[C@@H]2N)[C@H](O)[C@@H](O)[C@@H]1O | N-966 (HIV+) | 8 µg/mL
CC[C@@H](CO)NCCN[C@@H](CC)CO | 13008 (serotype 20) | 0.4 µg/mL
CC[C@H]1OC(=O)[C@H](C)[C@@H](O[C@H]2C[C@@](C)(OC)[C@@H](O)[C@H](C)O2)[C@H](C)[C@@H](O[C@@H]2O[C@H](C)C[C@H](N(C)C)[C@H]2O)[C@](C)(OC)C[C@@H](C)C(=O)[C@H](C)[C@@H](O)[C@]1(C)O | 3212 | 2 µg/mL
CN[C@@H]1[C@H](O[C@H]2[C@H](O[C@H]3[C@H](O)[C@@H](O)[C@H](N=C(N)N)[C@@H](O)[C@@H]3N=C(N)N)O[C@@H](C)[C@]2(O)C=O)O[C@@H](CO)[C@H](O)[C@H]1O | N-444 | 4 µg/mL
Brc1cccc(CSc2nc3ccccc3[nH]2)c1 | MY330/88 | >125 µM
NC[C@@H]1O[C@H](O[C@H]2[C@@H](O)[C@H](O[C@@H]3[C@@H](O)[C@H](N)C[C@H](N)[C@H]3O[C@H]3O[C@H](CO)[C@@H](O)[C@H](O)[C@H]3N)O[C@@H]2CO)[C@H](N)[C@@H](O)[C@@H]1O | CH-5/HIV+ | 3.12 µg/mL
C[C@@H]1CN(c2c(F)c(N)c3c(=O)c(C(=O)O)cn(C4CC4)c3c2F)C[C@H](C)N1 | LPR | 4 µg/mL
NCC[C@H](O)C(=O)N[C@@H]1C[C@H](N)[C@@H](O[C@H]2O[C@H](CN)[C@@H](O)[C@H](O)[C@H]2O)[C@H](O)[C@H]1O[C@H]1O[C@H](CO)[C@@H](O)[C@H](N)[C@H]1O | Strain 1 | 1 µg/mL
CO[C@H]1/C=C/O[C@@]2(C)Oc3c(C)c(O)c4c(O)c(c(/C=N/N5CCN(C)CC5)c(O)c4c3C2=O)NC(=O)/C(C)=C\C=C\[C@H](C)[C@H](O)[C@@H](C)[C@@H](O)[C@@H](C)[C@H](OC(C)=O)[C@@H]1C | 1012 | 2 µg/mL
CC(C)CSc1nc2ccccc2[nH]1 | MY330/88 | >125 µM
NC1CCN(c2c(F)cc3c(=O)c(C(=O)O)cn(C4CC4)c3c2F)C1 | 1760694 | 16 µg/mL
CO[C@H]1/C=C/O[C@@]2(C)Oc3c(C)c(O)c4c(O)c(c(/C=N/N5CCN(C6CCCC6)CC5)c(O)c4c3C2=O)NC(=O)/C(C)=C\C=C\[C@H](C)[C@H](O)[C@@H](C)[C@@H](O)[C@@H](C)[C@H](OC(C)=O)[C@@H]1C | MO-1 | 4 µg/mL
CN1CC2CCC1CN2c1c(F)cc2c(=O)c(C(=O)O)cn(C3CC3)c2c1F | 1760694 | 8 µg/mL
CO/N=C(\C(=O)N[C@@H]1C(=O)N2C(C(=O)O)=C(CSc3nc(=O)c(=O)[nH]n3C)CS[C@H]12)c1csc(N)n1 | 31 strains | 32 µg/mL
CN[C@@H]1[C@H](O[C@H]2[C@H](O[C@H]3[C@H](O)[C@@H](O)[C@H](N=C(N)N)[C@@H](O)[C@@H]3N=C(N)N)O[C@@H](C)[C@]2(O)C=O)O[C@@H](CO)[C@H](O)[C@H]1O | ATCC 15769 | 25 µg/mL
Clc1cccc(CSc2nc3ccccc3[nH]2)c1 | MY330/88 | >62 µM
CN(C)[C@@H]1C(=O)C(C(N)=O)=C(O)[C@@]2(O)C(=O)C3=C(O)c4c(O)cccc4[C@@](C)(O)[C@H]3C[C@@H]12 | 31 strains | 8 µg/mL
CO[C@H]1/C=C/O[C@@]2(C)Oc3c(C)c(O)c4c(O)c(c5c(c4c3C2=O)NC2(CCN(CC(C)C)CC2)N=5)=NC(=O)/C(C)=C\C=C\[C@H](C)[C@H](O)[C@@H](C)[C@@H](O)[C@@H](C)[C@H](OC(C)=O)[C@@H]1C | 2212-4 | 0.5 µg/mL
O=C(O)c1cn(C2CC2)c2c(F)c(N3CCC(N4CCCC4)C3)c(F)cc2c1=O | 1915112 | 2 µg/mL
CC(=O)OCC1=C(C(=O)O)N2C(=O)[C@@H](NC(=O)Cc3cccs3)[C@H]2SC1 | 31 strains | 16 µg/mL
CO[C@H]1/C=C/O[C@@]2(C)Oc3c(C)c(O)c4c(O)c(c(/C=N/N5CCN(C/C=C/c6ccccc6)CC5)c(O)c4c3C2=O)NC(=O)/C(C)=C\C=C\[C@H](C)[C@H](O)[C@@H](C)[C@@H](O)[C@@H](C)[C@H](OC(C)=O)[C@@H]1C | 5718 | 0.06 µg/mL
NNC(=O)c1ccncc1 | 13034 (serotype 18) | 3.2 µg/mL
O=C(O)c1cn(C2CC2)c2c(F)c(N3CCS(=O)(=O)CC3)c(F)cc2c1=O | 1172733 | 2 µg/mL
CC(C)N=c1cc2n(-c3ccc(Cl)cc3)c3ccccc3nc-2cc1Nc1ccc(Cl)cc1 | CH-2/HIV+ | 0.5 µg/mL
N#Cc1ccc(CSc2nc3ccccc3[nH]2)cc1 | MY330/88 | 32 µM
CC[C@@H](CO)NCCN[C@@H](CC)CO | 101 | 16 µg/mL
CCCCCSc1nc2ccccc2[nH]1 | MY330/88 | >62 µM
CO[C@H]1/C=C/O[C@@]2(C)Oc3c(C)c(O)c4c(O)c(c(/C=N/N5CCN(C)CC5)c(O)c4c3C2=O)NC(=O)/C(C)=C\C=C\[C@H](C)[C@H](O)[C@@H](C)[C@@H](O)[C@@H](C)[C@H](OC(C)=O)[C@@H]1C | 733/HIV+ | 2 µg/mL
CO[C@H]1/C=C/O[C@@]2(C)Oc3c(C)c(O)c4c(O)c(c(/C=N/N5CCN(C6CCCC6)CC5)c(O)c4c3C2=O)NC(=O)/C(C)=C\C=C\[C@H](C)[C@H](O)[C@@H](C)[C@@H](O)[C@@H](C)[C@H](OC(C)=O)[C@@H]1C | Serotype 7 | 2.5 µg/mL
C[C@@H]1CN(c2c(F)c(N)c3c(=O)c(C(=O)O)cn(C4CC4)c3c2F)C[C@H](C)N1 | 1760694 | 4 µg/mL
CO[C@H]1/C=C/O[C@@]2(C)Oc3c(C)c(O)c4c(O)c(c(/C=N/N5CCN(C)CC5)c(O)c4c3C2=O)NC(=O)/C(C)=C\C=C\[C@H](C)[C@H](O)[C@@H](C)[C@@H](O)[C@@H](C)[C@H](OC(C)=O)[C@@H]1C | 3216 | 2 µg/mL
CCN1CCN(C(=O)NC(C(=O)N[C@@H]2C(=O)N3C(C(=O)O)=C(CSc4nnnn4C)CS[C@H]23)c2ccc(O)cc2)C(=O)C1=O | 35 isolates | 25 µg/mL
CC[C@H]1OC(=O)[C@H](C)[C@@H](O[C@H]2C[C@@](C)(OC)[C@@H](O)[C@H](C)O2)[C@H](C)[C@@H](O[C@@H]2O[C@H](C)C[C@H](N(C)C)[C@H]2O)[C@](C)(OC)C[C@@H](C)C(=O)[C@H](C)[C@@H](O)[C@]1(C)O | N-966 | 16 µg/mL
O=C(O)c1cn(C2CC2)c2c(F)c(N3CCN4CCC3C4)c(F)cc2c1=O | 1988557 | 2 µg/mL
S=c1[nH]c2ccccc2[nH]1 | MY330/88 | 1000 µM
NCC[C@H](O)C(=O)N[C@@H]1C[C@H](N)[C@@H](O[C@H]2O[C@H](CN)[C@@H](O)[C@H](O)[C@H]2O)[C@H](O)[C@H]1O[C@H]1O[C@H](CO)[C@@H](O)[C@H](N)[C@H]1O | 1124 | 20 µg/mL
FC(F)(F)c1cccc(CSc2nc3ccccc3[nH]2)c1 | MY330/88 | 62 µM
CC(C)N=c1cc2n(-c3ccc(Cl)cc3)c3ccccc3nc-2cc1Nc1ccc(Cl)cc1 | Strain 1 | 0.25 µg/mL
CC1COc2c(N3CCN(C)CC3)c(F)cc3c(=O)c(C(=O)O)cn1c23 | 1295/HIV- | 4 µg/mL

The last 4 rows once more:

smiles,strain or isolate,result
NCC[C@H](O)C(=O)N[C@@H]1C[C@H](N)[C@@H](O[C@H]2O[C@H](CN)[C@@H](O)[C@H](O)[C@H]2O)[C@H](O)[C@H]1O[C@H]1O[C@H](CO)[C@@H](O)[C@H](N)[C@H]1O,1124,20 µg/mL
FC(F)(F)c1cccc(CSc2nc3ccccc3[nH]2)c1,MY330/88,62 µM
CC(C)N=c1cc2n(-c3ccc(Cl)cc3)c3ccccc3nc-2cc1Nc1ccc(Cl)cc1,Strain 1,0.25 µg/mL
CC1COc2c(N3CCN(C)CC3)c(F)cc3c(=O)c(C(=O)O)cn1c23,1295/HIV-,4 µg/mL